In the supplement of paper PMC3578754:

Experiments:
Assay in all cases: fold change of IC50 against reference virus; higher = more resistant; Cell-culture drug susceptibility tests of virus bearing the protease of each isolate, gathered from many studies.
ritonavir = compound: CC(C)c1nc(CN(C)C(=O)N[C@H](C(=O)N[C@@H](Cc2ccccc2)C[C@H](O)[C@H](Cc2ccccc2)NC(=O)OCc2cncs2)C(C)C)cs1 [ritonavir]
indinavir = compound: CC(C)(C)NC(=O)[C@@H]1CN(Cc2cccnc2)CCN1C[C@@H](O)C[C@@H](Cc1ccccc1)C(=O)N[C@H]1c2ccccc2C[C@H]1O [indinavir]
atazanavir = compound: COC(=O)N[C@H](C(=O)N[C@@H](Cc1ccccc1)[C@@H](O)CN(Cc1ccc(-c2ccccn2)cc1)NC(=O)[C@@H](NC(=O)OC)C(C)(C)C)C(C)(C)C [atazanavir]
saquinavir = compound: CC(C)(C)NC(=O)[C@@H]1C[C@@H]2CCCC[C@@H]2CN1C[C@@H](O)[C@H](Cc1ccccc1)NC(=O)[C@H](CC(N)=O)NC(=O)c1ccc2ccccc2n1 [saquinavir]
nelfinavir = compound: Cc1c(O)cccc1C(=O)N[C@@H](CSc1ccccc1)[C@H](O)CN1C[C@H]2CCCC[C@H]2C[C@H]1C(=O)NC(C)(C)C [nelfinavir]
tipranavir = compound: CCC[C@@]1(CCc2ccccc2)CC(O)=C([C@H](CC)c2cccc(NS(=O)(=O)c3ccc(C(F)(F)F)cn3)c2)C(=O)O1 [tipranavir]
lopinavir = compound: Cc1cccc(C)c1OCC(=O)N[C@@H](Cc1ccccc1)[C@@H](O)C[C@H](Cc1ccccc1)NC(=O)[C@H](C(C)C)N1CCCNC1=O [lopinavir]

Test System	fold change of IC50 against reference virus (ritonavir)	fold change of IC50 against reference virus (indinavir)	fold change of IC50 against reference virus (atazanavir)	fold change of IC50 against reference virus (saquinavir)	fold change of IC50 against reference virus (nelfinavir)	fold change of IC50 against reference virus (tipranavir)	fold change of IC50 against reference virus (lopinavir)
HIV-1 isolate 1185 (protease changes: T12I L33V K45R R57K L63P I64V, study 15)	1	1.2	1.3	0.9	1.7	1.6	0.8
HIV-1 isolate 1460 (protease changes: L10V I13V I15V G16A K20R V32I L33F M36I K43T M46I I47V I54M L63P A71V V82T L90M, study 64)	≥ 800	57	70	15	10	≥ 800	287
HIV-1 isolate 221 (protease changes: L10I I13V K20I L33V M46L L63P A71T I72V T74K I85V N88D L90M I93L, study 64)	6.5	15	25	68	82	0.7	2
HIV-1 isolate 732 (protease changes: E35D M36I L63P, study 64)	1.2	0.6	1	0.9	1.3	1.3	0.9
HIV-1 isolate 40 (protease changes: L10I I13V L24I L33F M36L K43T M46I I54V D60E I62V L63P A71V T74S V82A N83D I93L, study 64)	132	16	98	29	149	1.6	49
HIV-1 isolate 511 (protease changes: T4S L10H I13V E35D M36V M46I I62V L63P I64V A71V L90M I93L, study 64)	18	12	7.6	5.7	46	5.1	4.6
HIV-1 isolate 652 (protease changes: L10I V11I I13V A22V V32I R41K M46I K55R I62V L63P I64V H69Q A71V V82A I84V, study 64)	49	7.7	45	3.8	7.8	7.9	19
HIV-1 isolate 648 (protease changes: E35D N37T I62V L63P I93L, study 15)	0.8	1.2	0.9	0.9	1.7	0.9	0.7
HIV-1 isolate 1595 (protease changes: K20R E35D M36I N37D F53L L63P H69K A71T I72V V77I V82A, study 15)	7.5	1.2	1.1	0.4	1.6	0.3	1.6
HIV-1 isolate 426 (protease changes: L10V I13V K20T L33F M46I Q58E I62V L63P V77I N88G, study 64)	0.9	2.1	0.9	0.4	2.9	1.2	2.7
HIV-1 isolate 34 (protease changes: L10V T12V I13V I15V K20M V32I L33F K43T M46I I47V I54M D60E Q61N I62V L63P C67Y H69K A71I I72L G73S V77I V82A L89V L90M, study 64)	≥ 800	88	88	12	76	12	≥ 500
HIV-1 isolate 560 (protease changes: K14R R41K L63P A71T I72E V77I I93L, study 15)	0.8	1	0.8	0.9	1.4	0.9	0.6
HIV-1 isolate 331 (protease changes: L10I I13V V32I L33F M36I R41K I47A L63P K70E A71V V82A L90M I93L, study 64)	34	21	4.4	0.5	9	3.5	≥ 500
HIV-1 isolate 194 (protease changes: R57K V77I, study 64)	1	0.7	0.5	0.5	0.9	0.5	0.6
HIV-1 isolate 5 (protease changes: L33F K43T L63C H69Q V77I, study 64)	4.2	2.8	2.7	1.9	2.7	3.5	2.8
HIV-1 isolate 496 (protease changes: L10I K20R L24I L33F E35D M36I N37D M46L I54V L63P A71T V82A T91S, study 64)	≥ 800	20	38	8.8	43	1.2	113
HIV-1 isolate 856 (protease changes: I13V I64V, study 64)	0.5	0.6	0.6	0.5	1.2	0.5	0.7
HIV-1 isolate 1082 (protease changes: R57K L63Q, study 64)	0.7	0.5	0.7	0.4	0.5	0.4	0.6
HIV-1 isolate 1534 (protease changes: A22V E35D R41K I62V L63P K70R A71V L90M, study 15)	4.2	4	3.3	3.2	8.5	1.9	1.8

Test System	fold change of IC50 against reference virus (ritonavir)	fold change of IC50 against reference virus (indinavir)	fold change of IC50 against reference virus (atazanavir)	fold change of IC50 against reference virus (saquinavir)	fold change of IC50 against reference virus (nelfinavir)	fold change of IC50 against reference virus (tipranavir)	fold change of IC50 against reference virus (lopinavir)
HIV-1 isolate 970 (protease changes: L10I L24I L63P I64V I72L V77I V82A, study 15)	12	4.6	3.1	0.9	3.7	0.4	2.9
HIV-1 isolate 1433 (protease changes: L10I K20I E35D M36I M46I I62V L63P I64V A71V I72V L76V L90M I93L, study 64)	6	23	1.9	3	9.3	0.6	18
HIV-1 isolate 1051 (protease changes: I13V M46I L63P T74S V82T, study 15)	5.3	3.5	2.6	0.5	3.5	2.4	1.9
HIV-1 isolate 818 (protease changes: G16E I62V L63T I72V V77I, study 64)	1.5	1.1	1.2	1.1	1.4	1.6	1.1
HIV-1 isolate 988 (protease changes: L10I V11I I15V Q18H L19I K20I M36I N37D M46I K55R K70R A71V I72M P79D I84V N88T L90M, study 15)	40	49	2.6	92	55	2.8	36
HIV-1 isolate 1464 (protease changes: K14R N37D R41K I62V L63A V77I I93L, study 64)	0.7	0.8	0.7	0.7	1.4	0.7	0.4
HIV-1 isolate 1078 (protease changes: L19Q M36I N37C I62V L63P I64V, study 64)	1	1.1	0.8	0.8	1.7	1.3	1.1
HIV-1 isolate 1405 (protease changes: L10I I13V K20L M46I Q58E I62V L63P A71T T74S V77I N88S L90M Q92K, study 64)	4.3	16	16	10	80	0.9	3.9
HIV-1 isolate 552 (protease changes: L10F I13V K20R V32I L33F M36I L63P A71V V82A L90M, study 64)	66	14	9.3	4.9	23	1	16
HIV-1 isolate 769 (protease changes: I13V K20T E35D M36I I62V L63P A71T T74S L90M Q92K, study 15)	36	11	23	12	56	4.8	5.3
HIV-1 isolate 309 (protease changes: L10I L63P I93L, study 64)	1.4	2.2	1.5	1.4	3.3	1.1	1.4
HIV-1 isolate 606 (protease changes: L10I T12P L19V L33F M46L G48M I54M L63T A71V I72T T74A V82A I84V I93L, study 64)	43	8.8	29	94	6.3	5.8	44
HIV-1 isolate 588 (protease changes: E35D L63P, study 64)	2.3	1.7	1.6	1.2	2	1.8	1.5
HIV-1 isolate 780 (protease changes: L63P V77I I93L, study 64)	1.2	1.3	1.2	0.9	2.1	1.1	1.1
HIV-1 isolate 1614 (protease changes: L10I E35D K43T I54M D60E I62V L63P I72V V82M L90M I93L, study 64)	17	8.6	13	2	13	3	5.9
HIV-1 isolate 46 (protease changes: T12N L63P H69Q V77I I93L, study 64)	1	1.2	1	0.6	2.1	0.8	0.6
HIV-1 isolate 1394 (protease changes: T4P L10V I13V L19I L33F E35D M36I N37C M46I L63P A71T I84V N88D Q92R I93L, study 64)	48	5.6	14	11	13	11	14
HIV-1 isolate 873 (protease changes: L63P, study 64)	1.2	1	0.9	1	1.7	1.4	1

Fold change is the IC50 on the isolate divided by the IC50 on a reference virus; 1 = unchanged, higher = more resistant. Changes are given against the subtype B consensus. No active / inactive call. The values were gathered from many studies (numbered anew) with different assays, which the source does not name. Most viruses are clinical isolates; some are laboratory strains or clones with known resistance changes. Isolates with mixed residues are left out; stretches that were not sequenced show no change. Round top values that many isolates share are read here as limits; other very high values and 0.1 may be limits too. The protease changes I3V and N37S, insertions and deletions cannot be read from the source.
